Test results reported in patent US5451518A, “Purified human ceramide-activated protein kinase” (Sloan-Kettering Institute for Cancer Research, priority 1992, dated 1995).

Tested on: ceramide-activated protein kinase
Conditions: HL-60; cholera toxin 10 nM, retinoic acid 0.5 μM, butyrate 0.5 mM

SMILES	effect on kinase activity (in words)
CCCCCCCCCCCCC/C=C/[C@@H](O)[C@H](CO)NC(=O)CCCCCCC [C8 -cer, N-octanoylsphingosine, reference compound]	quantitatively similar to that obtained with a maximal concentration of TNF-α
CC1=C(/C=C/C(C)=C/C=C/C(C)=C/C(=O)O)C(C)(C)CCC1 [retinoic acid, reference compound]	not stimulated
